For at least one entry, the source does not settle the construct or the ends of the probe. Tags and fusion partners may be left off the protein sequences shown.
Molecular target: T1, GlnR (Streptococcus pneumoniae D39) (UniProt A0A0H2ZRB1)
T1 sequence (looked up): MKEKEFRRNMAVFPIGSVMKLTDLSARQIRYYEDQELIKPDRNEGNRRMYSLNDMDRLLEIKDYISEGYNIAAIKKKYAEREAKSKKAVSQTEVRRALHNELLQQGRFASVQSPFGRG
Test: EMSA
Details: 10 mM sodium formate; 30 mM KCl, 1 mM DTT, 1 mM EDTA, 10% glycerol; room temperature 20 min, 20 ul, ~30 ng DNA, 0.1-0.5 uM protein; recombinant protein; residues 1-118; protein details: His6 (pLEICS-01); label: none (SYBR Green stain); probe letters rebuilt from the primers and the genome

CAGTTTGAAATAAAATATAGACTGTTTTAGAAAAGAAAGTGTAAAAATAGGGATTTTGCACTTGTTGAAATCGGTTACTTTATGGTATACTTGTC (double strand) [PpflB]
Kd: 790 nM

Source: publication PMC5327383, “Pneumococcal galactose catabolism is controlled by multiple regulators acting on pyruvate formate lyase” (Scientific Reports, 2017)
